Pooled drug test results. Numbers come from NIAID ChemDB, via PubChem.

All rows: tests in culture; agent: HIV-1

ECn: concentration that inhibits the pathogen or its effect by n%. Conditions beyond the fields shown may differ between rows. Blank or dashed fields: not listed here.

structure | setting | endpoint | mutations | read by | cells | strain | result
CCCCSc1nc(N)cc(Sc2ccccc2)n1 | - | EC50 | - | cytopathic effect / MTT | MT-4 | IIIB | 37 µM
O=c1[nH]cnc2c1ncn2C1CC[C@@H](CO)O1 | - | EC50 | 4xAZT | p24 / ELISA | Primary T lymphocytes | - | 35.5 µM
CCOc1cccc(Cc2cc(C3CCN(C[C@H]4CN([C@@H](C(=O)O)[C@@H](C)CC)C[C@@H]4c4cccc(F)c4)CC3)n(CC)n2)c1 | 50% human serum | EC90 | - | β-galactosidase | HeLa | BaL | 0.1 µM
CCCCSc1nc(Sc2ccc3ccccc3c2)cc(=O)[nH]1 | - | EC50 | - | cytopathic effect / MTT | MT-4 | IIIB | ≥200 µM
Cc1nnc(C[C@H](C[C@H](O)CN2CCN(C(C)(C)c3ncc(-c4ccc(F)cc4)o3)C[C@H]2C(=O)NCC(F)(F)F)C(=O)N[C@H]2c3ccccc3OC[C@H]2O)o1 | - | EC50 | PR-L10I N37S R41K M46I I54V I62V L63P A71V V77I V82A L90M I93L | p24 | MT-4 | Q-60 Clinical isolate | <0.031 µM
CCC(C)Oc1nc(Sc2cccc(C)c2)cc(=O)[nH]1 | - | EC50 | - | cytopathic effect / MTT | MT-4 | IIIB | >200 µM
CC(C)(c1ncc(-c2ccc(F)cc2)o1)N1CCN(C[C@@H](O)C[C@@H](Cc2nnco2)C(=O)N[C@H]2c3ccccc3OC[C@H]2O)[C@H](C(=O)NCC(F)(F)F)C1 | - | EC50 | - | p24 | MT-4 | NL4-3 WT | <0.125 µM
Cc1cn([C@H]2C[C@H](N=[N+]=[N-])[C@@H](CO)O2)c(=O)[nH]c1=O | - | EC50 | - | - | MT-4 | - | 0.7 µM
CCCCOc1ccc(Cc2cc(C3CCN(C[C@H]4CN([C@@H](C(=O)O)C(C)(C)C)C[C@@H]4c4cccc(F)c4)CC3)n(CC)n2)cc1 | - | EC50 | - | β-galactosidase | HeLa | BaL | <0.0012 µM
Cc1cn([C@H]2C[C@H](N=[N+]=[N-])[C@@H](CO)O2)c(=O)[nH]c1=O | - | EC50 | RT-V118I M184V | luciferase | HeLa | Recombinant | 0.024 µM
CCCCCCCCCCCCSCC(COP(=O)([O-])OCC[N+](C)(C)C)OCCCCCCCCO | - | EC50 | - | plaque count | CEM + CEM-SS | HXB2 WT | 0.05 µM
Cc1cn([C@H]2C=C[C@@H](CO)O2)c(=O)[nH]c1=O | - | EC90 | K65R | p24 / ELISA | Primary T lymphocytes | - | 7.9 µM
N#Cc1cc2[nH]c3ccccc3c2n(-c2ccc([N+](=O)[O-])cc2)c1=O | - | EC50 | RT-Y188L | luciferase | HeLa | NNRTI-resistant | 0.156 µM
O=C1N(Cc2ccc3cn[nH]c3c2)[C@H](CCc2ccccc2)[C@@H](O)[C@@H](Cc2ccccc2)N1Cc1ccc2cn[nH]c2c1 | - | EC50 | - | cytopathic effect / MTT | MT-2 | RF | <0.032 µM
Cc1ccnc2c1NC(=O)c1cccnc1N2C1CC1 | - | EC50 | RT-V108I | cytopathic effect / XTT | CEM + CEM-SS | IIIB | 0.33 µM
N#CC[C@H](C1CCCC1)n1cc(-c2ncnc3[nH]ccc23)cn1 | - | EC90 | M184V | p24 / ELISA | Primary T lymphocytes | - | 3.2 µM
COc1cncc(-c2cnc(C(C)(C)N3CCN(C[C@@H](O)C[C@@H](Cc4nnc(-c5ccccc5)o4)C(=O)N[C@H]4c5ccccc5OC[C@H]4O)[C@H](C(=O)NCC(F)(F)F)C3)o2)c1 | - | EC95 | PR-L10I M46I I54V Q58E L63P I64V V77I V82F I84V L90M I93L | p24 | MT-4 | K-60 Clinical isolate | 0.25 µM
Cc1cn([C@H]2C[C@H](N=[N+]=[N-])[C@@H](CO)O2)c(=O)[nH]c1=O | - | EC50 | - | cytopathic effect / XTT | CEM + CEM-SS | IIIB | 0.003 µM
CCc1cc(NCc2nc3c(Cl)ccc(Cl)c3o2)c(=O)[nH]c1C | - | EC50 | - | p24 | MT-4 | RF | <0.05 µM
CCn1nc(Cc2cc(F)cc(F)c2)cc1C1CCN(C[C@H]2CN([C@@H](C(=O)O)C3CCCCC3)C[C@@H]2c2cccc(F)c2)CC1 | 50% human serum | EC90 | - | β-galactosidase | HeLa | BaL | 0.011 µM
CC(C)(c1ncc(-c2ccc(Cl)cc2)o1)N1CCN(C[C@@H](O)C[C@@H](Cc2nnco2)C(=O)N[C@H]2c3ccccc3OC[C@H]2O)[C@H](C(=O)NCC(F)(F)F)C1 | - | EC50 | PR-L10I N37S R41K M46I I54V I62V L63P A71V V77I V82A L90M I93L | p24 | MT-4 | Q-60 Clinical isolate | <0.031 µM
CCCCCCCCCCCCSCC(COP(=O)([O-])OCC[N+](C)(C)C)OCCCCCCCCC(=O)OCC(=O)OC[C@H]1O[C@@H](n2cc(C)c(=O)[nH]c2=O)C[C@@H]1N=[N+]=[N-] | - | EC50 | - | plaque count | CEM-SS | 5346 WT | 0.02 µM
O=C1N[C@H](CCc2ccccc2)[C@@H](O)[C@@H](Cc2ccccc2)N1Cc1ccc2[nH]ncc2c1 | - | EC50 | - | cytopathic effect / MTT | MT-2 | RF | <0.59 µM
CCc1cc(NCc2nc3c(C)ccc(C)c3o2)c(=O)[nH]c1C | - | EC95 | - | p24 | H9 | IIIB | 0.2 µM
Cc1cn([C@H]2C=C[C@@H](COP(=O)(O)OCc3ccccc3)O2)c(=O)[nH]c1=O | - | EC50 | - | cytopathic effect | CEM + CEM TK- | - | 0.3 µM
Nc1ccn([C@H]2CC[C@@H](CO)O2)c(=O)n1 | - | EC50 | - | - | MT-2 | NL4-3 | 0.1 µM
CCn1nc(Cc2ccc(OC(C)(C)C)cc2)cc1C1CCN(C[C@H]2CN([C@@H](C(=O)O)C(C)C)C[C@@H]2c2cccc(F)c2)CC1 | - | EC90 | - | β-galactosidase | HeLa | BaL | <0.00014 µM
Cc1cn([C@H]2C[C@H](N=[N+]=[N-])[C@@H](CO)O2)c(=O)[nH]c1=O | - | EC50 | - | plaque count | CEM + CEM-SS | IIIB | 0.005 µM
S=C(NCCc1cccs1)Nc1ccc(Br)cn1 | - | EC50 | - | p24 | PBMC | A17var RT-Y181C K103N NNRTI-resistant | 2.054 µM
Cc1nnc(C[C@H](C[C@H](O)CN2CCN(C(C)(C)c3ncc(-c4ccc(Cl)cc4)o3)C[C@H]2C(=O)NCC(F)(F)F)C(=O)N[C@H]2c3ccccc3OC[C@H]2O)o1 | - | EC95 | PR-L10I M36I N37D M46I R57K L63P A71V G73S I84V L90M I93L | p24 | MT-4 | V-18 Clinical isolate | 0.063 µM
O=c1[nH]cnc2c1ncn2[C@H]1CC[C@@H](CO)O1 | - | EC50 | - | p24 | PBMC | 9281 CLADE A CLADE A | 9.63 µM
Cc1cn([C@H]2C[C@H](N=[N+]=[N-])[C@@H](CO)O2)c(=O)[nH]c1=O | - | EC50 | RT-T139I | cytopathic effect / XTT | CEM + CEM-SS | Calanolide-resistant (RT T139I) | 0.006 µM
O=c1[nH]cnc2c1ncn2[C@H]1CC[C@@H](CO)O1 | - | EC50 | - | - | MT-2 | NL4-3:IN7-3) | 0.5 µM
CCn1nc(Cc2ccc(S(=O)(=O)c3ccccc3)cc2)cc1C1CCN(C[C@H]2CN([C@@H](C(=O)O)C(C)(C)C)C[C@@H]2c2cccc(F)c2)CC1 | 50% human serum | EC50 | - | β-galactosidase | HeLa | BaL | <0.0037 µM
Cc1cn([C@H]2C[C@H](N=[N+]=[N-])[C@@H](COP(=O)(OCc3ccccc3)OCc3ccccc3)O2)c(=O)[nH]c1=O | - | EC50 | - | cytopathic effect | MT-4 | - | 0.98 µM
CCCCSc1nc(N)cc(Nc2cccc3ccccc23)n1 | - | EC50 | - | cytopathic effect / MTT | MT-4 | IIIB | >39 µM
CN[C@@H]1[C@H](O[C@@H]2OC[C@@H](O)[C@H](O)[C@H]2O)[C@@H](O)[C@H](O[C@H]2c3cc(C)c(C(=O)N[C@H](C)C(=O)O)c(O)c3-c3c(cc4c(c3O)C(=O)c3cc(OC)cc(O)c3C4=O)[C@@H]2O)O[C@@H]1C | - | EC50 | - | p24 | PBMC | UG273 R5 CLADE A | 2.2 µg/mL
CC(C)(c1ncc(-c2ccc(Cl)cc2)o1)N1CCN(C[C@@H](O)C[C@@H](Cc2nnc(-c3ccccc3)o2)C(=O)N[C@H]2c3ccccc3OC[C@H]2O)[C@H](C(=O)NCC(F)(F)F)C1 | - | EC50 | PR-L10I M36I N37D M46I R57K L63P A71V G73S I84V L90M I93L | p24 | MT-4 | V-18 Clinical isolate | <0.125 µM
CC(C)Nc1cccnc1N1CCN(C(=O)c2cc3cc(NS(C)(=O)=O)ccc3[nH]2)CC1 | - | EC90 | - | p24 | PBMC | JR-CSF | 0.0393 µM
CCCC(=O)O[C@H]1CN2CC[C@H](O)[C@@H]2[C@@H](O)[C@@H]1O | - | EC50 | - | - | H9 | RF | <4 µM
Cc1cn([C@H]2C[C@H](F)[C@@H](CO)O2)c(=O)[nH]c1=O | - | EC50 | - | RT activity | H9 | IIIB | 0.0174 µM
NC(=O)c1cccc(CN2C(=O)N(Cc3cccc(C(N)=O)c3)[C@H](Cc3ccc(F)cc3)[C@H](O)[C@H]2CCc2ccc(F)cc2)c1 | - | EC50 | - | cytopathic effect / MTT | MT-2 | RF | <0.035 µM
Cc1cn([C@H]2C[C@H](N=[N+]=[N-])[C@@H](CO)O2)c(=O)[nH]c1=O | - | EC50 | RT-T215Y | plaque count | HT4 + HT4-6C | P035A (RT-T215Y) | 0.56 µM
Cc1ccnc2c1NC(=O)c1cccnc1N2C1CC1 | - | EC50 | RT-A98G | cytopathic effect / XTT | CEM + CEM-SS | NL4-3 | 0.2 µM
CC[C@@H](C)[C@H](C(=O)O)N1C[C@H](CN2CCC(c3cc(Cc4ccc(S(=O)(=O)c5ccccc5)cc4)nn3CC)CC2)[C@@H](c2cccc(F)c2)C1 | 50% human serum | EC90 | - | β-galactosidase | HeLa | BaL | 0.033 µM
CCc1c(Sc2ccccn2)n(COCc2ccccc2)c(=O)[nH]c1=O | - | EC50 | RT-A98G | cytopathic effect / XTT | CEM + CEM-SS | NL4-3 | 0.02 µM
CCC(C)Oc1cc(N)nc(OC(C)CC)n1 | - | EC50 | - | cytopathic effect / MTT | MT-4 | IIIB | >300 µM
CCCOc1ccc(Cc2cc(C3CCN(C[C@H]4CN([C@@H](C(=O)O)C(C)C)C[C@@H]4c4cccc(F)c4)CC3)n(CC)n2)cc1 | 50% human serum | EC90 | - | β-galactosidase | HeLa | BaL | >0.3 µM
CCCc1nnc(C[C@H](C[C@H](O)CN2CCN(C(C)(C)c3ncc(-c4ccc(Cl)cc4)o3)C[C@H]2C(=O)NCC(F)(F)F)C(=O)N[C@H]2c3ccccc3OC[C@H]2O)o1 | - | EC95 | PR-L10I M46I I54V Q58E L63P I64V V77I V82F I84V L90M I93L | p24 | MT-4 | K-60 Clinical isolate | 0.016 µM
CCn1nc(Cc2ccc(OC3CCC3)cc2)cc1C1CCN(C[C@H]2CN([C@@H](C(=O)O)C(C)C)C[C@@H]2c2cccc(F)c2)CC1 | 50% human serum | EC50 | - | β-galactosidase | HeLa | BaL | <0.1 µM
Cc1cn([C@H]2C[C@H](N=[N+]=[N-])[C@@H](COP(=O)(O)OCc3ccccc3)O2)c(=O)[nH]c1=O | - | EC50 | - | cytopathic effect | CEM + CEM-SS | - | <0.005 µM
CCOc1ccc(Cc2cc(C3CCN(C[C@H]4CN([C@@H](C(=O)O)[C@H](C)CC)C[C@@H]4c4cccc(F)c4)CC3)n(CC)n2)cc1F | - | EC90 | - | β-galactosidase | HeLa | BaL | <0.00014 µM
CC(=O)c1cccc(CN2C(=O)N(Cc3cccc(C(C)=O)c3)[C@H](Cc3ccccc3)[C@H](O)[C@H]2CCc2ccccc2)c1 | - | EC50 | - | cytopathic effect / MTT | MT-2 | RF | <0.049 µM
Cn1c2ccccc2c2c1cc(C#N)c(=O)n2-c1ccc([N+](=O)[O-])cc1 | - | EC50 | RT-M41L K70R T215F K219E | luciferase | HeLa | NRTI resistant | 0.038 µM